Conditions: 101.33 kPa, Liquid; for electrical conductivity: Alternating current cell with electrodes; for mass density: Vibrating tube method

CCCCn1cc[n+](C)c1.O=S(=O)(F)[N-]S(=O)(=O)F [1-butyl-3-methylimidazolium bis(fluorosulfonyl)imide]
Conditions	electrical conductivity [S/m]	mass density [kg/m3]	viscosity [mPa·s]
273.15 K	0.291	1379.2	98.81
278.15 K	0.37	1374.73	76.48
283.15 K	0.462	1370.3	60.41
288.15 K	0.561	1365.9	48.6
293.15 K	0.681	1361.53	39.71
298.15 K	0.816	1357.17	32.93
303.15 K	0.953	1352.85	27.64
308.15 K	1.12	–	–
313.15 K	1.27	1344.27	20.22
318.15 K	1.47	–	–
323.15 K	1.64	1335.79	15.35
328.15 K	1.86	–	–
333.15 K	2.04	1327.38	12.01
338.15 K	2.29	–	–
343.15 K	2.48	1319.05	9.651
348.15 K	2.77	–	–
353.15 K	2.94	1310.8	7.918
358.15 K	3.28	–	–
363.15 K	–	1302.61	6.626
368.15 K	3.83	–	–
378.15 K	4.4	–	–
388.15 K	4.99	–	–
398.15 K	5.6	–	–
408.15 K	6.23	–	–
418.15 K	6.87	–	–
428.15 K	7.53	–	–
438.15 K	8.2	–	–
448.15 K	8.89	–	–
458.15 K	9.62	–	–
468.15 K	10.3	–	–
